Measured values taken from PMC9506549, “µ-Conotoxins Targeting the Human Voltage-Gated Sodium Channel Subtype NaV1.7” (2022).

Amino acid sequences for entries named in this document (tags omitted).
UniProt Q15858, whole entry, looked up: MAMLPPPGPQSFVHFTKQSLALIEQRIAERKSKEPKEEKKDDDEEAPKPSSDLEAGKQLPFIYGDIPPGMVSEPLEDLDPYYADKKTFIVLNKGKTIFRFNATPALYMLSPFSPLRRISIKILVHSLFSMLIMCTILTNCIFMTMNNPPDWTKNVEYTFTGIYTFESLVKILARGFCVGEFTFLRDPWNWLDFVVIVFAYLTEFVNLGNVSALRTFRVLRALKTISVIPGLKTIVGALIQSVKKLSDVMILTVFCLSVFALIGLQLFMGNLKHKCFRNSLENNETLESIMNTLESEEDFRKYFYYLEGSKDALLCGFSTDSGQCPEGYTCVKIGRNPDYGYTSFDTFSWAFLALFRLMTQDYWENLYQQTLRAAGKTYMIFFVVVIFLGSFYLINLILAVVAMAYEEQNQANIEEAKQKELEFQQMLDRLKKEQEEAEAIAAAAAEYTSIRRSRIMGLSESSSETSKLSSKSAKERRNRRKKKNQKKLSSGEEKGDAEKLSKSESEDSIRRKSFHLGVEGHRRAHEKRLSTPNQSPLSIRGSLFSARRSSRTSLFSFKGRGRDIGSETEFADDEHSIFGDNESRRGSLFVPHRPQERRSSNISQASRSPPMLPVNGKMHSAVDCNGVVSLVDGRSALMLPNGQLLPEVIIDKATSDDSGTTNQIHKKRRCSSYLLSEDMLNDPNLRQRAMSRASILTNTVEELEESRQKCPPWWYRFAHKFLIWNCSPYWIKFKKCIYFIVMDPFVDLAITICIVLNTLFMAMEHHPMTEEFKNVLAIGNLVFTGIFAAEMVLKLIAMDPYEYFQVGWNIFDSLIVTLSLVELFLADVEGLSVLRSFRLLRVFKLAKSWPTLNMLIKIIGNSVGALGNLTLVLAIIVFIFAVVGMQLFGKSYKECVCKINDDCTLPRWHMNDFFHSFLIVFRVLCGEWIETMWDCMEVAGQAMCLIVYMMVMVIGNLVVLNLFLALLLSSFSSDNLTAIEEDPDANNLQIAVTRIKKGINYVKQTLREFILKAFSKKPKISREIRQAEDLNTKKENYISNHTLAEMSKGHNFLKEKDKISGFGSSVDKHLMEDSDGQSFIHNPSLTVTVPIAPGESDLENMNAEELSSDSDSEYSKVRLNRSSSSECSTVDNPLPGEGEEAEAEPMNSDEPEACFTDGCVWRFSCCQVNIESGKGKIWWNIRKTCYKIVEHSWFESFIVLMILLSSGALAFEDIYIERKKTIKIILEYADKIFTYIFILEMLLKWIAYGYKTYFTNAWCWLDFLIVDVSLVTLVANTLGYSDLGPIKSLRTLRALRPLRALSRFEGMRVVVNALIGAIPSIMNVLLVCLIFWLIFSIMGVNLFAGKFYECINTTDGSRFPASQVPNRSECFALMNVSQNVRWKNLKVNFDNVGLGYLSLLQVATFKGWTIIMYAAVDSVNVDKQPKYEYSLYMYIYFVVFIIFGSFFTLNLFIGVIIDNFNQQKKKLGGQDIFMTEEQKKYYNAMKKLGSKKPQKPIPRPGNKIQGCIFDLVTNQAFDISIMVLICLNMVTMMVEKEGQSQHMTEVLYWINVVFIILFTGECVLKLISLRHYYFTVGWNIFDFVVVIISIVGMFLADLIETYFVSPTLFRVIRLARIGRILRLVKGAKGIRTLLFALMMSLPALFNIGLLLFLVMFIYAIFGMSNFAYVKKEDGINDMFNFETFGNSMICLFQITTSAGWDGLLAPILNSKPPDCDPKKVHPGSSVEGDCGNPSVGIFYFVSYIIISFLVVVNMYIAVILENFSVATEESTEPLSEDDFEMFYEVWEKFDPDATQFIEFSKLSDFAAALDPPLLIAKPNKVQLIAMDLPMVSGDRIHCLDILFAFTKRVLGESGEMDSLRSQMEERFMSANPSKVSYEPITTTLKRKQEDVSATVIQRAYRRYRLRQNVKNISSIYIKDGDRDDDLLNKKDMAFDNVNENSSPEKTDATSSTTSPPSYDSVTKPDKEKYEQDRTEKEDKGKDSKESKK

Molecular target: hNaV1.7 (Homo sapiens, UniProt Q15858)
Assay: Automated whole-cell patch-clamp electrophysiology, hNaV1.7/β1 in HEK293 cells
Conditions: for IC50: read-out: IC50 hNaV1.7, analogue and extended µ-conotoxin series (Table 3, Figures 2 and 6), automated whole-cell patch-clamp, HEK293 hNaV1.7/β1, 5 min per concentration, 22 °C, mean ± SEM, n = 3–4 cells

| SMILES | IC50 [nM] | Fold Difference to SxIIIC (hNaV1.7) (↓ fold-decrease, ↑ fold-increase in potency compared to SxIIIC, ns no significant difference, listed as [R16H, R20A]SxIIIC) [fold] |
| --- | --- | --- |
| C[C@@H]1NC(=O)[C@H](C)NC(=O)[C@H](Cc2c[nH]cn2)NC(=O)[C@H](CC(=O)O)NC(=O)[C@H](Cc2c[nH]cn2)NC(=O)[C@@H]2CSSC[C@H](N)C(=O)N[C@H]3CSSC[C@H](NC1=O)C(=O)N[C@H](C(N)=O)CSSC[C@H](NC(=O)CNC(=O)CNC(=O)[C@H](CCCNC(=N)N)NC(=O)CNC(=O)[C@H](CC(N)=O)NC3=O)C(=O)N[C@@H](CO)C(=O)N[C@@H](CO)C(=O)N[C@@H](CCCNC(=N)N)C(=O)N[C@@H](Cc1c[nH]c3ccccc13)C(=O)N2 | > 1000 |  |
| C[C@@H]1NC(=O)[C@H](Cc2c[nH]cn2)NC(=O)[C@H](CC(=O)O)NC(=O)[C@H](Cc2c[nH]cn2)NC(=O)[C@@H]2CSSC[C@H](N)C(=O)N[C@H]3CSSC[C@H](NC(=O)[C@H](CCCNC(=N)N)NC1=O)C(=O)N[C@H](C(N)=O)CSSC[C@H](NC(=O)CNC(=O)CNC(=O)[C@H](CCCNC(=N)N)NC(=O)CNC(=O)[C@H](CC(N)=O)NC3=O)C(=O)N[C@@H](CO)C(=O)N[C@@H](CO)C(=O)N[C@@H](CCCNC(=N)N)C(=O)N[C@@H](Cc1c[nH]c3ccccc13)C(=O)N2 | 667 |  |
| C[C@@H]1NC(=O)[C@H](Cc2c[nH]cn2)NC(=O)[C@H](CC(=O)O)NC(=O)[C@H](CCCNC(=N)N)NC(=O)[C@@H]2CSSC[C@H](NC(=O)CNC(=O)[C@@H](N)CCCNC(=N)N)C(=O)N[C@H]3CSSC[C@H](NC(=O)[C@H](CCCNC(=N)N)NC1=O)C(=O)N[C@H](C(N)=O)CSSC[C@H](NC(=O)CNC(=O)[C@H](CCCNC(=N)N)NC(=O)[C@H](CCCNC(=N)N)NC(=O)CNC(=O)[C@H](CC(N)=O)NC3=O)C(=O)N[C@@H](CO)C(=O)N[C@@H](CO)C(=O)N[C@@H](CCCNC(=N)N)C(=O)N[C@@H](Cc1c[nH]c3ccccc13)C(=O)N2 | 156 |  |
| C[C@@H]1NC(=O)[C@H](C)NC(=O)[C@H](Cc2c[nH]cn2)NC(=O)[C@H](CC(=O)O)NC(=O)[C@H](CCCNC(=N)N)NC(=O)[C@@H]2CSSC[C@H](N)C(=O)N[C@H]3CSSC[C@H](NC1=O)C(=O)N[C@H](C(N)=O)CSSC[C@H](NC(=O)CNC(=O)CNC(=O)[C@H](CCCNC(=N)N)NC(=O)CNC(=O)[C@H](CC(N)=O)NC3=O)C(=O)N[C@@H](CO)C(=O)N[C@@H](CO)C(=O)N[C@@H](CCCNC(=N)N)C(=O)N[C@@H](Cc1c[nH]c3ccccc13)C(=O)N2 | 482 |  |
| C[C@@H]1NC(=O)[C@H](C)NC(=O)[C@H](Cc2c[nH]cn2)NC(=O)[C@H](CC(=O)O)NC(=O)[C@H](Cc2c[nH]cn2)NC(=O)[C@@H]2CSSC[C@H](NC(=O)CNC(=O)[C@@H](N)CCCNC(=N)N)C(=O)N[C@H]3CSSC[C@H](NC1=O)C(=O)N[C@H](C(N)=O)CSSC[C@H](NC(=O)CNC(=O)CNC(=O)[C@H](CCCNC(=N)N)NC(=O)CNC(=O)[C@H](CC(N)=O)NC3=O)C(=O)N[C@@H](CO)C(=O)N[C@@H](CO)C(=O)N[C@@H](CCCNC(=N)N)C(=O)N[C@@H](Cc1c[nH]c3ccccc13)C(=O)N2 | 889 | 6 |
| C[C@@H]1NC(=O)[C@H](C)NC(=O)[C@H](Cc2c[nH]cn2)NC(=O)[C@H](CC(=O)O)NC(=O)[C@H](CCCNC(=N)N)NC(=O)[C@@H]2CSSC[C@H](NC(=O)CNC(=O)[C@@H](N)CCCNC(=N)N)C(=O)N[C@H]3CSSC[C@H](NC1=O)C(=O)N[C@H](C(N)=O)CSSC[C@H](NC(=O)CNC(=O)CNC(=O)[C@H](CCCNC(=N)N)NC(=O)CNC(=O)[C@H](CC(N)=O)NC3=O)C(=O)N[C@@H](CO)C(=O)N[C@@H](CO)C(=O)N[C@@H](CCCNC(=N)N)C(=O)N[C@@H](Cc1c[nH]c3ccccc13)C(=O)N2 | 142 |  |
| N=C(N)NCCC[C@@H]1NC(=O)CNC(=O)[C@H](CC(N)=O)NC(=O)[C@@H]2CSSC[C@@H]3NC(=O)[C@H](Cc4c[nH]c5ccccc45)NC(=O)[C@H](CCCCN)NC(=O)[C@H](CO)NC(=O)[C@H](CO)NC(=O)[C@H](CSSC[C@@H](C(N)=O)NC(=O)[C@H](CSSC[C@H](N)C(=O)N2)NC(=O)[C@H](CCCNC(=N)N)NC(=O)[C@H](CO)NC(=O)[C@H](Cc2c[nH]cn2)NC(=O)[C@H](CC(=O)O)NC(=O)[C@H](CCCNC(=N)N)NC3=O)NC(=O)CNC(=O)CNC1=O | 305 |  |
